Anti-infective test results gathered from many reports (values: NIAID ChemDB through PubChem).

All rows: whole-cell or culture tests; species: Hepatitis B virus; cell line: 2.2.15; read-out: EC50

ECn: concentration that inhibits the pathogen or its effect by n%. Blank or dashed fields: not listed here. Neighbouring rows are from separate reports.

compound	read by	value
Cc1ccc([C@@H](C)CCCC(C)(C)O)c(O[C@@H]2OC(CO)[C@@H](O)C(O)[C@@H]2O)c1	-	>61 µg/mL
O=c1ccn(C[C@H]2C[C@H]2[C@H](O)CO)c(=O)[nH]1	-	>10 µM
COC(=O)C(Cc1c[nH]c2ccccc12)NP(=O)(O)OCC1C/C1=C/n1cnc2c(N)ncnc21	-	0.49 µM
Nc1ncnc2c1ncn2[C@H]1C[C@]12C[C@H]2CO	-	>10 µM
CCOC(=O)c1c(CS(=O)c2ccccc2)n(C)c2cc(Br)c(O)c(Cn3ccnc3C)c12	antigen	49.06 µg/mL
Nc1nc(NC2CC2)c2ncn(C=C3CC3CO)c2n1	-	2 µM
C=C1[C@H](CO)[C@@H](O)C[C@@H]1n1cnc2c(=O)[nH]c(N)nc21	-	0.0037 µM
Nc1nc2c(ncn2/C=C2\CC2(CO)CO)c(=O)[nH]1	hybridisation	>10 µM
Nc1nc(Cl)c2ncn(/C=C3/C[C@H]3CO)c2n1	-	>10 µM
Nc1nc(F)c2ncn(/C=C3/CC3(CO)CO)c2n1	hybridisation	>20 µM
C/C(=C\CC[C@H](C)c1ccc(CO)cc1O)CO	-	>61 µg/mL
Nc1nc2c(ncn2COCCOP(=O)(O)OP(=O)(O)OP(=O)(O)O)c(=O)[nH]1	-	>100 µM
CC(C)=CCC[C@H](C)c1ccc(CO)cc1O	-	>61 µg/mL
COC(=O)[C@H](C)NP(=O)(OC[C@H]1C/C1=C/n1cnc2c(OC)nc(N)nc21)Oc1ccccc1	-	2 µM
Nc1nc2c(ncn2C[C@H]2C[C@H]2CO)c(=O)[nH]1	-	>10 µM
C/C(=C\CC[C@H](C)c1ccc(C)cc1O)CO	-	>61 µg/mL
O=C(N/C(C(=O)N1CCCCC1)=C(/Cl)c1ccccc1)c1ccccc1	-	5.7 µM
COc1nc(N)nc2c1ncn2/C=C1/C[C@H]1CO	-	>10 µM
CC(C)=CCC[C@H](C)c1ccc(C)cc1O[C@@H]1OC(CO)[C@@H](O)C(O)[C@@H]1O	-	>61 µg/mL
COC(=O)[C@H](C)NP(=O)(OCC1C/C1=C\n1cnc2c(N)ncnc21)Oc1ccccc1	-	1.2 µM
O=C1NNC(=O)c2c(ncn2[C@@H]2O[C@H](CO)[C@@H](O)[C@H]2O)N1	antigen	>30 µM
Cc1ccc([C@@H](C)CCC(=O)O)c(O)c1	-	>61 µg/mL
Nc1ncnc2c1ncn2[C@@H]1C=C[C@H](CO)O1	-	0.2 µM
C/C(C=O)=C\CC[C@H](C)c1ccc(CO)cc1O	-	>61 µg/mL
Nc1ccn(C[C@H]2C[C@H]2CO)c(=O)n1	-	>10 µM
Cc1ccc([C@@H](C)CC[C@H](O)C(C)(C)O)c(O)c1	-	>61 µg/mL
CC1=C(O)C(=O)C=C2C1=CCC1[C@@]2(C)CC[C@@]2(C)[C@@H]3C[C@](C)(C(=O)O)CC[C@]3(C)CC[C@]12C	hybridisation	0.15 µM

2 of the rows above, restated:

compound | read by | value
Cc1ccc([C@@H](C)CCC(=O)O)c(O)c1 | - | >61 µg/mL
Nc1ncnc2c1ncn2[C@@H]1C=C[C@H](CO)O1 | - | 0.2 µM